Results: paper PMC9386795 (ACS Omega, 2022)

Each compound was assayed on P. aeruginosa efflux knockout GKCW120 (PΔ6) (assay: Broth microdilution MIC assay against PA efflux knockout strain). Conditions: n = 3; no visible pathogen growth.
Format: cell-based, Pseudomonas aeruginosa

| SMILES | PΔ6 MIC [µg/mL] |
| --- | --- |
| COC(=O)[C@@H](NCc1cc2ccccc2nc1OCc1ccccc1)C(C)C [Compound 15, Methyl ((2-(Benzyloxy)quinolin-3-yl)methyl)-L-valinate] | > 256 |
| COC(=O)[C@@H](CCSC)NCc1cc2ccccc2nc1SC [Compound 17, Methyl ((2-(Methylthio)quinolin-3-yl)methyl)-D-methioninate] | 256 |
| COC(=O)[C@H](Cc1c[nH]c2ccccc12)NCc1cc2ccccc2nc1OC [Compound 18, Methyl ((2-Methoxyquinolin-3-yl)methyl)-L-tryptophanate] | > 256 |
| COC(=O)[C@H](Cc1c[nH]c2ccccc12)NCc1cc2ccccc2nc1SC [Compound 19, Methyl ((2-(Methylthio)quinolin-3-yl)methyl)-L-tryptophanate] | > 256 |
